Pooled drug test results. Numbers come from NIAID ChemDB, via PubChem.

Common to all: growth or infection tests; organism: HIV-1

ECn: concentration that inhibits the pathogen or its effect by n%. Blank or dashed fields: not listed here. Conditions beyond the fields shown may differ between rows.

compound | mutations | strain | method | measure | cell line | value
Cc1sccc1C(=S)Nc1ccc(Cl)c(OCC=C(Cl)Cl)c1 |  | IIIB | syncytia | EC50 | CEM | 0.007 µg/mL
Cc1ccc(C)c(CS(=O)(=O)c2cccc[n+]2[O-])c1 |  | MN | syncytia | EC50 | CEM | 10 µg/mL
C=C(C)[C@@H]1CC[C@]2(NC[C@H]([C@@H](C)O)N3CCS(=O)(=O)CC3)CC[C@]3(C)[C@H](CC[C@@H]4[C@@]5(C)CC[C@H](OC(=O)C6CC(C(=O)O)C6(C)C)C(C)(C)[C@@H]5CC[C@]43C)[C@@H]12 |  | NL4-3 | p24 / ELISA | EC50 | MT-4 | <0.01 µM
CCc1[nH]c(=S)n(Nc2cccc(Cl)c2)c1-c1ccccc1 |  | IIIB | cytopathic effect / MTT | EC50 | MT-4 | 9.06 µM
COc1ccc(S(=O)(=O)N(CC(C)C)C[C@@H](O)CCN(CC2CCCC2)S(=O)(=O)C2CCCOC2)cc1 |  | IIIB | p24 | EC50 | CEM | <1 µM
CC1(C)CC=C(c2cn(-c3nccc(C(=O)NC4CCC(N5CC6CCC(C5)O6)CC4)n3)c3ccc(F)c([C@H](OC(C)(C)C)C(=O)O)c23)CC1 | E92Q/G140S/Q148H | NL4-3 | luminescence | EC50 | MT-4 | 0.0052 µM
C[C@H](O)[C@H](CN[C@]12CC[C@@H](C3(C)CC3)[C@@H]1[C@H]1CC[C@@H]3[C@@]4(C)CC[C@H](OC(=O)[C@H]5C[C@@H](C(=O)O)C5(C)C)C(C)(C)[C@@H]4CC[C@@]3(C)[C@]1(C)CC2)N1CCS(=O)(=O)CC1 |  | NL4-3 | p24 / ELISA | EC50 | MT-2 | <0.01 µM
Nc1nc(=O)n([C@H]2C=C[C@@H](CO)O2)cc1F |  | LAI | RT activity | EC50 | PBMC | <0.18 µM
Cc1cccc(Nn2cnc(C)c2-c2ccccc2)c1 | RT-K103N Y181C | SO561945 (RT K103N Y181C) | cytopathic effect / MTT | EC50 | MT-4 | 3.99 µM
CC1([C@@H]2CC[C@]3(NC[C@H](C(=O)O)N4CCS(=O)(=O)CC4)CC[C@]4(C)[C@H](CC[C@@H]5[C@@]6(C)CC[C@H](OC(=O)[C@H]7C[C@@H](C(=O)O)C7(C)C)C(C)(C)[C@@H]6CC[C@]54C)[C@@H]23)CC1 | V7A | NL4-3 | p24 / ELISA | EC50 | MT-4 | >0.1 µM
COCc1nc(Nc2ccc(C#N)cc2)nc(Nc2c(C)cc(/C=C/C#N)cc2C)c1C(=O)NCc1cccnc1 |  | K103N+Y101C |  | EC50 | MT4 CMV-EGFP | 0.0148 µM
Cc1cn([C@H]2C=C[C@@H](CO)O2)c(=O)[nH]c1=O |  | HXB2-RT-T215 Recombinant | cytopathic effect / MTT | EC50 | MT-4 | 0.52 µM
Cc1ccc(C(C)S(=O)(=O)c2c(C)ccc[n+]2[O-])c(C)c1 |  | IIIB | syncytia | EC50 | CEM | 3.4 µg/mL
O=S(=O)(c1ccccc1)N(CCc1ccccc1)CC(O)CN(CC1CCCC1)S(=O)(=O)c1ccccc1 |  | IIIB | p24 | EC50 | CEM | <1 µM
CCN1C[C@H](C)N2C(=C(O)C3C(=O)N4Cc5ccc(F)cc5OCCCCNC(=O)C(=N4)C32)C1=O |  | LAII(IIIB) |  | EC50 | MT-4 | 3.67 µM
S=c1[nH]c2c(n1Nc1cccc(Cl)c1)CCCC2 |  | IIIB | cytopathic effect / MTT | EC50 | MT-4 | >126 µM
Cc1cc(C#N)cc(C)c1Oc1nc(Nc2ccc(C#N)cc2)nc(N)c1Br |  | 94ug114.1.6 | luciferase | EC50 | HEK293T | 2.47 nM
COc1ccc(S(=O)(=O)N(CC(C)C)C[C@@H](O)CCN(CC2CCCC2)S(=O)(=O)Cc2cnco2)cc1 |  | IIIB | p24 | EC90 | CEM | 1 µM
CC(C)S(=O)(=O)N1CCN([C@@H](C)CN[C@]23CC[C@@H](C4(C)CC4)[C@@H]2[C@H]2CC[C@@H]4[C@@]5(C)CC[C@H](OC(=O)[C@H]6C[C@@H](C(=O)O)C6(C)C)C(C)(C)[C@@H]5CC[C@@]4(C)[C@]2(C)CC3)CC1 |  | NL4-3 | p24 / ELISA | EC50 | MT-4 | <0.01 µM
COc1ccc(NC(=S)C2=C(C)OCCS2)cc1OCC=C(Cl)Cl | RT-Y181C | Pyridone-resistant (RT Y181C) | syncytia | EC50 | CEM | 2 µg/mL
COCc1nc(Nc2ccc(C#N)cc2)nc(Nc2c(C)cc(/C=C/C#N)cc2C)c1C(=O)N1CCC(O)CC1 |  | K103N + Y181C |  | EC50 | MT4 CMV-EGFP | 1.32 µM
C=C(Cl)COc1cc(NC(=S)c2ccoc2C)ccc1Cl | RT-E138K | TSAO-m3T-resistant (RT E138K) | syncytia | EC50 | CEM | 0.26 µg/mL
C=C(C)[C@@H]1CC[C@]2(NC[C@H]([C@@H](C)O)N3CCS(=O)(=O)CC3)CC[C@]3(C)[C@H](CC[C@@H]4[C@@]5(C)CC[C@H](OC(=O)[C@H]6C[C@@H](C(=O)O)C6(C)C)C(C)(C)[C@@H]5CC[C@]43C)[C@@H]12 | V7A | NL4-3 | p24 / ELISA | EC50 | MT-4 | <0.05 µM
Cc1[nH]c(=S)n(Nc2cccc(Cl)c2)c1-c1cccc(C#N)c1 |  | IIIB | cytopathic effect / MTT | EC50 | MT-4 | ≥99.4 µM
CC(C)[C@@H](CN[C@]12CC[C@@H](C3(C)CC3)[C@@H]1[C@H]1CC[C@@H]3[C@@]4(C)CC[C@H](OC(=O)[C@H]5C[C@@H](C(=O)O)C5(C)C)C(C)(C)[C@@H]4CC[C@@]3(C)[C@]1(C)CC2)N1CCS(=O)(=O)CC1 |  | 92HT599 | p24 / ELISA | EC50 | MT-2 | <0.01 µM
Cc1ccc(C)c(CS(=O)(=O)c2ccccn2)c1 | RT-K103N | IIIB | syncytia | EC50 | CEM | >20 µg/mL
CC(C)N1C[C@H](C)N2C(=C(O)C3C(=O)N4Cc5ccc(F)cc5OCCCCCNC(=O)C(=N4)C32)C1=O |  | LAII(IIIB) |  | EC50 | MT-4 | 2.81 µM
COc1ccnc2[nH]cc(C(=O)C(=O)N3CCN(C(=O)c4ccccc4)C[C@H]3C)c12 |  | LAI | RT activity | EC50 | MT-2 | 0.004 µM
Cc1ccc(C)c(C(Cl)S(=O)(=O)c2cc(C)cc[n+]2[O-])c1 | RT-Y181C | IIIB | syncytia | EC50 | CEM | >4 µg/mL
CCCc1cc(=O)oc2c3c(c4c(c12)OC(C)(C)CC4)O[C@@H](C)[C@H](C)[C@@H]3O | RT-M184V | 3TC-resistant (RT M184V) | cytopathic effect / XTT | EC50 | CEM + CEM-SS | 1 µM
CC(C)=CCOc1cc(NC(=S)c2ccoc2C)ccc1Cl |  | IIIB | syncytia | EC50 | CEM | 0.002 µg/mL
C=CCNC(=O)c1c(COC)nc(Nc2ccc(C#N)cc2)nc1Nc1c(C)cc(/C=C/C#N)cc1C |  | K103N + Y181C |  | EC50 | MT4 CMV-EGFP | 0.0195 µM
Cc1cccc(CS(=O)(=O)c2cccc[n+]2[O-])c1 |  | MN | syncytia | EC50 | CEM | 13 µg/mL
COCc1nc(Nc2ccc(C#N)cc2)nc(Nc2c(C)cc(/C=C/C#N)cc2C)c1C(=O)N1CCN(CCO)CC1 |  | MDR |  | EC50 | MT4 CMV-EGFP | 6.46 µM
O=[N+]([O-])c1ccc[n+]([O-])c1SCc1ccccc1 | RT-E103K | IIIB | syncytia | EC50 | CEM | ≥20 µg/mL
CC(C)N1C[C@H](C)N2C(=C(O)C3C(=O)N(Cc4ccc(F)cc4)N=C(N(C)S(C)(=O)=O)C32)C1=O |  | LAII(IIIB) |  | EC50 | MT-4 | 0.99 µM
COCc1nc(Nc2ccc(C#N)cc2)nc(Nc2c(C)cc(/C=C/C#N)cc2C)c1C(=O)NCC(OC)OC |  | MDR |  | EC50 | MT4 CMV-EGFP | 0.107 µM
CN1N=C(N)c2cn([C@@H]3O[C@H](COP(=O)(O)O)[C@@H](O)[C@H]3O)c3ncnc1c23 |  | G | cytopathic effect / XTT | EC50 | CEM + CEM-SS | 0.15 µM
COc1ccc(NC(=O)C2=C(C)OCCS2)cc1OCC=C(Cl)Cl | RT-Y188H | HEPT-resistant (RT Y188H) | syncytia | EC50 | CEM | 10 µg/mL
COCc1nc(Nc2ccc(C#N)cc2)nc(Nc2c(C)cc(/C=C/C#N)cc2C)c1C(=O)NCCN1CCOCC1 |  | MDR |  | EC50 | MT4 CMV-EGFP | 0.38 µM
C[C@@H](O)[C@@H](CN[C@]12CC[C@@H](C3(C)CC3)[C@@H]1[C@H]1CC[C@@H]3[C@@]4(C)CC[C@H](OC(=O)[C@H]5C[C@@H](C(=O)O)C5(C)C)C(C)(C)[C@@H]4CC[C@@]3(C)[C@]1(C)CC2)N1CCS(=O)(=O)CC1 | V7A | NL4-3 | p24 / ELISA | EC50 | MT-4 | <0.05 µM
COc1ccc(S(=O)(=O)N(CC(C)C)CC(O)CNc2ccccc2C(=O)NC(C)(C)C)cc1 |  | IIIB | p24 | EC90 | CEM | 1 µM
CC(C)OC(=S)Nc1ccc(Cl)c(OC(F)F)c1 |  | IIIB | syncytia | EC50 | CEM | 2.62 µM
COCCNC(=O)c1c(COC)nc(Nc2ccc(C#N)cc2)nc1Nc1c(C)cc(/C=C(\C)C#N)cc1C |  | L1001+K103N |  | EC50 | MT4 CMV-EGFP | 0.0158 µM
CCN1C[C@H](C)N2C(=C(O)C3C(=O)N4Cc5ccc(F)cc5OCCCCN(C)C(=O)C(=N4)C32)C1=O |  | LAII(IIIB) |  | EC50 | MT-4 | 13.87 µM
C[C@@H]1CCO[C@H]2Cn3cc(C(=O)NCc4ccc(F)cc4F)c(=O)c(O)c3C(=O)N12 | L74F/V75I |  | luciferase / luminescence | EC50 | TZM-bl | 0.0008 µM
Cc1nc2ccccc2c(-c2cc(F)c3c(c2C)CCCO3)c1[C@H](OC(C)(C)C)C(=O)O | A128T | NL4-3 | luminescence | EC50 | MT-4 | 0.038 µM
CC1([C@@H]2CC[C@]3(NC[C@H](CO[Si](C)(C)C(C)(C)C)N4CCS(=O)(=O)CC4)CC[C@]4(C)[C@H](CC[C@@H]5[C@@]6(C)CC[C@H](OC(=O)[C@H]7C[C@@H](C(=O)O)C7(C)C)C(C)(C)[C@@H]6CC[C@]54C)[C@@H]23)CC1 |  | NL4-3 | p24 / ELISA | EC50 | MT-4 | >0.05 µM
COc1ccc(S(=O)(=O)N(CC(C)C)C[C@@H](O)CCN(CC2CCCC2)S(=O)(=O)Cc2cc[nH]c2)cc1 |  | IIIB | p24 | EC50 | CEM | <1 µM
CCN1C[C@H](C)N2C(=C(O)C3C(=O)N4Cc5ccc(F)cc5OCCCCCS(=O)(=O)N(C5CC5)C(=N4)C32)C1=O |  | LAII(IIIB) |  | EC50 | MT-4 | 0.6 µM
COc1ccc(S(=O)(=O)N(CC2CCCC2)CC(F)(F)C(=O)[C@@H](Cc2ccccc2)NC(=O)O[C@H]2CCOC2)cc1 |  | IIIB | p24 | EC50 | CEM | <1 µM
C=C(C)[C@@H]1CC[C@]2(NC[C@H]([C@@H](C)OC(=O)COCCOC)N3CCS(=O)(=O)CC3)CC[C@]3(C)[C@H](CC[C@@H]4[C@@]5(C)CC[C@H](OC(=O)[C@H]6C[C@@H](C(=O)O)C6(C)C)C(C)(C)[C@@H]5CC[C@]43C)[C@@H]12 | V7A | NL4-3 | p24 / ELISA | EC50 | MT-4 | <0.05 µM

For reference, 8 entries again:

compound	mutations	strain	method	measure	cell line	value
COCc1nc(Nc2ccc(C#N)cc2)nc(Nc2c(C)cc(/C=C/C#N)cc2C)c1C(=O)N1CCN(CCO)CC1		MDR		EC50	MT4 CMV-EGFP	6.46 µM
Cc1[nH]c(=S)n(Nc2cccc(Cl)c2)c1-c1cccc(C#N)c1		IIIB	cytopathic effect / MTT	EC50	MT-4	≥99.4 µM
C=C(C)[C@@H]1CC[C@]2(NC[C@H]([C@@H](C)OC(=O)COCCOC)N3CCS(=O)(=O)CC3)CC[C@]3(C)[C@H](CC[C@@H]4[C@@]5(C)CC[C@H](OC(=O)[C@H]6C[C@@H](C(=O)O)C6(C)C)C(C)(C)[C@@H]5CC[C@]43C)[C@@H]12	V7A	NL4-3	p24 / ELISA	EC50	MT-4	<0.05 µM
Cc1cccc(Nn2cnc(C)c2-c2ccccc2)c1	RT-K103N Y181C	SO561945 (RT K103N Y181C)	cytopathic effect / MTT	EC50	MT-4	3.99 µM
COc1ccnc2[nH]cc(C(=O)C(=O)N3CCN(C(=O)c4ccccc4)C[C@H]3C)c12		LAI	RT activity	EC50	MT-2	0.004 µM
S=c1[nH]c2c(n1Nc1cccc(Cl)c1)CCCC2		IIIB	cytopathic effect / MTT	EC50	MT-4	>126 µM
CCCc1cc(=O)oc2c3c(c4c(c12)OC(C)(C)CC4)O[C@@H](C)[C@H](C)[C@@H]3O	RT-M184V	3TC-resistant (RT M184V)	cytopathic effect / XTT	EC50	CEM + CEM-SS	1 µM
COc1ccc(NC(=O)C2=C(C)OCCS2)cc1OCC=C(Cl)Cl	RT-Y188H	HEPT-resistant (RT Y188H)	syncytia	EC50	CEM	10 µg/mL